For orientation: koff means the rate constant with which the complex falls apart.

Experimental findings from paper PMC9216602, “A Powassan virus domain III nanoparticle immunogen elicits neutralizing and protective antibodies in mice” (2022) are described below.

Assay [1] deals with MBP-POWV-EDIII fusion protein (Powassan virus). Kind of assay: BLI; panel title printed as m65.61. A general note: BLI is a label-free optical method that tracks binding on a fibre tip over time.
Assay [2] shares this target. Kind of assay: BLI; apparent KD (bivalent mAb); panel title printed as m65.61.
Assay [3] shares this target. Kind of assay: BLI.
Assay [4] has the same target. Kind of assay: BLI; apparent KD.

Substance “mAb m61.65 (chimeric: mouse variable domains, human IgG1 constant domain) (from UniProt P01857)” registered a koff in assay [1] of 0.00086 s⁻¹. The Kd in assay [2] worked out at 3.2 nM.

On to “mAb m158.25 (chimeric: mouse variable domains, human IgG1 constant domain) (from UniProt P01857)”, for which the off-rate (koff) in assay [3] was 0.0011 s⁻¹.

On to “mAb m158.26 (chimeric: mouse variable domains, human IgG1 constant domain) (from UniProt P01857)”, for which the koff in assay [3] was determined as 0.00089 s⁻¹. Besides, in assay [4], the Kd was 15 nM.

Turning to “mAb m158.36 (chimeric: mouse variable domains, human IgG1 constant domain) (from UniProt P01857)”, the off-rate (koff) in assay [3] came to 0.00064 s⁻¹. For the same substance, the Kd in assay [4] was 3 nM.
